PubChem BioAssay AID1259414 – Drosophila RNAi Screening Center | 2018
Screen: 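Host factors increasing or decreasing Wolbachia levels in cultured fly cells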 (primary screen). System: Drosophila JW18 cells infected with Wolbachia. Reagent: long dsRNA against Drosophila genes, 0.25 µg dsRNA per well of a 384-well plate. Duration: 5 days. Treatment: cells persistently infected with Wolbachia before knock-down; no added drug. Measurement: 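Automated imaging of bacterial rRNA staining divided by host cell count, reported as plate-normalised robust z-score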. Direction: Wolbachia per cell robust z: higher = more Wolbachia per host cell than the plate typical. Rule for the call: 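Active if absolute robust z reaches 1.5 in two or more of three replicates, leaving out multi- or no-target dsRNAs, genes unexpressed in JW18 and A1 wells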.
In all, the deposit lists about 24,000 reagents; shown is a random part of those with a known target gene and a result. In the full data, about 1,210 (5%) got an active call. 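Inactive calls also include excluded dsRNAs with several or no targets, genes unexpressed in JW18, and well A1, regardless of score.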 The numbers tell different reagents against one gene apart. Names joined by + are all predicted targets of the reagent.

Silencing of sei #1 came out at: Wolbachia per cell robust z, rep 1 = -6.12; Wolbachia per cell robust z, rep 2 = 0.268; Wolbachia per cell robust z, rep 3 = -0.124; inactive.
After knock-down of sei #2, the screen gave Wolbachia per cell robust z, rep 1 = 0.408; Wolbachia per cell robust z, rep 2 = 0.7; Wolbachia per cell robust z, rep 3 = -0.685; inactive.
CG7458 + CR34262 scored Wolbachia per cell robust z, rep 1 = 1.23; Wolbachia per cell robust z, rep 2 = -0.449; Wolbachia per cell robust z, rep 3 = -0.356; inactive.
CG16989 #1 scored Wolbachia per cell robust z, rep 1 = -1.03; Wolbachia per cell robust z, rep 2 = 0.584; Wolbachia per cell robust z, rep 3 = -1.56; inactive.
Against CG16989 #2, the entry reads Wolbachia per cell robust z, rep 1 = 0.575; Wolbachia per cell robust z, rep 2 = -0.229; Wolbachia per cell robust z, rep 3 = -0.494; inactive.
Depletion of CG6067 resulted in: Wolbachia per cell robust z, rep 1 = -0.132; Wolbachia per cell robust z, rep 2 = -0.0604; Wolbachia per cell robust z, rep 3 = -0.0682; inactive.
Against CG34301, the values are Wolbachia per cell robust z, rep 1 = 0.146; Wolbachia per cell robust z, rep 2 = 1.04; Wolbachia per cell robust z, rep 3 = 0.272; inactive.
With knock-down of levy, the record shows Wolbachia per cell robust z, rep 1 = 1.05; Wolbachia per cell robust z, rep 2 = 0.352; Wolbachia per cell robust z, rep 3 = -0.255; inactive.

2 of these entries in another layout:
gene,reagent,"Wolbachia per cell robust z, rep 1","Wolbachia per cell robust z, rep 2","Wolbachia per cell robust z, rep 3",Outcome
CG16989,2,0.575,-0.229,-0.494,inactive
CG6067,1,-0.132,-0.0604,-0.0682,inactive

The list goes on.
CG30339 scored Wolbachia per cell robust z, rep 1 = -3.54; Wolbachia per cell robust z, rep 2 = -2.35; Wolbachia per cell robust z, rep 3 = -6.76; active.
Against CG8219 #1, the entry reads Wolbachia per cell robust z, rep 1 = -0.51; Wolbachia per cell robust z, rep 2 = -0.441; Wolbachia per cell robust z, rep 3 = -3.53; inactive.
CG8219 #2 scored Wolbachia per cell robust z, rep 1 = -0.952; Wolbachia per cell robust z, rep 2 = 2.02; Wolbachia per cell robust z, rep 3 = -2.77; inactive.
With knock-down of 128up #1 the results were Wolbachia per cell robust z, rep 1 = 1.62; Wolbachia per cell robust z, rep 2 = 0.263; Wolbachia per cell robust z, rep 3 = 1.61; active.
128up #2 showed Wolbachia per cell robust z, rep 1 = -2.76; Wolbachia per cell robust z, rep 2 = -4.71; Wolbachia per cell robust z, rep 3 = -8.37; inactive.
After knock-down of CtBP #1, the screen gave Wolbachia per cell robust z, rep 1 = -0.328; Wolbachia per cell robust z, rep 2 = -0.144; Wolbachia per cell robust z, rep 3 = 0.375; inactive.
After knock-down of CtBP #2, the screen gave Wolbachia per cell robust z, rep 1 = 1.95; Wolbachia per cell robust z, rep 2 = 2.18; Wolbachia per cell robust z, rep 3 = -0.165; active.
Rcd5 #1 scored Wolbachia per cell robust z, rep 1 = 0.934; Wolbachia per cell robust z, rep 2 = -0.438; Wolbachia per cell robust z, rep 3 = -1.36; inactive.
Rcd5 #2 scored Wolbachia per cell robust z, rep 1 = 0.379; Wolbachia per cell robust z, rep 2 = 0.519; Wolbachia per cell robust z, rep 3 = 0.904; inactive.
